In the series the test system is Purα (in vitro translated, 35S, RNase-treated) + GST-Tat. Nature of the series: GST pull-down (RNA reconstitution of protein complex). The note with it: RNA-bridged complex, indirect read-out, protein details: N-terminal GST.

The exact form of at least one protein or probe is not confirmed. At least one verdict was read from the data and is not stated in words by the source.

Take “CCCGGCCGGU [oligo-srRNA consensus GC-rich 10-mer]”: the binding result is recorded as “binds”.

(Values after PMC10531167.)
